# Measurements from patent publication US20240158368A1, “Pyrrolidine Main Protease Inhibitors as Antiviral Agents” (AbbVie Inc., priority 2022, published 2024).
# Amino acid sequences for entries named in this document (tags omitted). Residues count along the entry.
# UniProt K9N7C7, 3248-3553 limits assumed: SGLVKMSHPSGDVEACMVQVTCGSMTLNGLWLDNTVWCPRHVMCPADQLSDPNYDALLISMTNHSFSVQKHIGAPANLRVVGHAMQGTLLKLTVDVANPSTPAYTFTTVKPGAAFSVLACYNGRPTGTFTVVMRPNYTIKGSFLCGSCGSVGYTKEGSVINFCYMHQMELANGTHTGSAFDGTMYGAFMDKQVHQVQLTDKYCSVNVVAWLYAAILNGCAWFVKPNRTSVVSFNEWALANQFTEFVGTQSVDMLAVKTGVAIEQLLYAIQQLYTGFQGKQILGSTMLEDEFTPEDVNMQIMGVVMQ
# Key:
# [1] = target: SARS-CoV-1 Mpro (Severe acute respiratory syndrome coronavirus (SARS-CoV), UniProt P0C6X7); format: biochemical
# [2] = target: MERS Mpro (Middle East respiratory syndrome-related coronavirus (isolate United Kingdom/H123990006/2012) (MERS-CoV) (Betacoronavirus England 1), UniProt K9N7C7); assay: biochemical
Structure (SMILES),EC50 [1],EC50 [2]
N#Cc1cc(C(=O)N2CCOCC2)c(N2CC[C@H](NC(=O)c3cc(=O)[nH]c4c(F)cccc34)C2)c(C(F)(F)F)c1 [Compound 4],9.93 nM,12.3 nM
O=C(N[C@H]1CCN(c2c(C(=O)N3CCOCC3)cc(Br)cc2C(F)(F)F)C1)c1cc(=O)[nH]c2c(F)cccc12 [Compound 47],–,9.61 nM
